Anti-infective test results gathered from many reports (values: NIAID ChemDB through PubChem).

All rows: target-level tests; agent: HIV-1; target: Reverse transcriptase

ICn is the concentration giving n% inhibition. Blank or dashed fields: not listed here. Rows are shuffled and stem from different studies.

structure | setting | changes | strain or isolate | measure | read by | result
COc1ccc2c(c1)N(C(=O)OC(C)C)[C@@H](CSC)C(=S)N2 | - | RT-L100I V108I Y181I | - | IC50 | scintillation proximity / radiometric | >29 µM
COC(=O)c1cc(O)c(O)c(O)c1 | - | - | IIIB | IC50 | nucleotide incorporation | >1000 µM
C[C@H](Cn1cnc2c(N)ncnc21)OCP(=O)(O)OP(=O)(O)OP(=O)(O)O | - | - | IIIB | IC50 | - | 0.2 µM
CC(C)c1c(CO)cn(Cc2ccncc2)c1Sc1cccc(Cl)c1 | - | - | - | IC50 | nucleotide incorporation / radiometric | 0.45 µM
Cc1cn([C@H]2C=C[C@@H](COP(=O)(O)OP(=O)(O)OP(=O)(O)O)O2)c(=O)[nH]c1=O | - | - | LAV | Ki | - | 0.012 µM
Oc1cc(O)c2c(c1)O[C@H](c1ccc(O)c(O)c1)[C@H](O)C2 | - | - | - | IC50 | RT activity / fluorescence | >100 µg/mL
C#C[C@]1(COP(=O)(O)OP(=O)(O)OP(=O)(O)O)CC[C@@H](n2ccc(N)nc2=O)O1 | - | RT-M184V | - | IC50 | nucleotide incorporation / radiometric | >1 µM
O=c1c(O)c(-c2ccc(O)c(O)c2)oc2cc(O)cc(O)c12 | - | - | - | IC50 | RT activity / fluorescence | >100 µg/mL
Cc1nnn2c1CO[C@H]1[C@@H]3OC(C)(C)O[C@@H]3[C@H]3Sc4ccccc4C(=O)N3[C@H]1C2 | - | - | - | IC50 | RT activity / absorbance | 4.1 µM
CN(c1ncccc1CO)C1CCN(C(=O)c2cc3cc(NS(C)(=O)=O)ccc3[nH]2)CC1 | - | RT-P236L | IIIB | IC50 | nucleotide incorporation | >50 µM
CC(C)c1c(COC(N)=O)cn(Cc2ccncc2)c1Sc1cc(F)cc(F)c1 | - | - | - | IC50 | nucleotide incorporation / radiometric | 0.15 µM
CCOCn1c([Se]c2ccccc2)c(F)c(=O)[nH]c1=O | - | - | - | IC50 | - | >100 µM
CC[C@H]1CN2CCc3cc(OC)c(OC)cc3[C@@H]2C[C@@H]1CC1=NCCc2cc(OC)c(OC)cc21 | - | - | - | IC50 | - | 348 µM
C[C@H]1CN2CCC[C@H]3CCCCC[C@@H]4C(=O)[C@@H](C)CN5CCC[C@@H](CCCCC[C@H](C1=O)[C@@H]32)[C@H]45 | - | - | - | IC50 | nucleotide incorporation / radiometric | 10.6 µM
CCCN(C)c1nc([C@@H](C)c2c(F)cccc2F)c(C)c(=O)[nH]1 | - | - | - | IC50 | RT activity | >0.975 µM
O=c1cc(-c2ccc(O)c(O)c2)oc2cc(O)cc(O)c12 | - | - | - | IC50 | RT activity / fluorescence | >100 µg/mL
CCOCn1c([Se]c2ccccc2)cc(=O)[nH]c1=O | - | - | - | IC50 | - | >100 µM
Cc1cn([C@H]2CC[C@@H](COP(=O)(O)OP(=O)(O)OP(=O)(O)O)O2)c(=O)[nH]c1=O | - | RT-N137A | - | IC50 | nucleotide incorporation / radiometric | 0.1 µM
O=C(/C=C/c1ccc(O)c2c1[C@H](C(=O)O)[C@@H](c1ccc(O)c(O)c1)O2)O[C@H](Cc1ccc(O)c(O)c1)C(=O)O | - | - | IIIB | Ki | nucleotide incorporation | 0.8 µM
COc1c(O)c(Cl)c2c(c1OC)-c1c(c(Cl)c(O)c(OC)c1OC)C[C@H](C)[C@H](C)C2 | - | - | - | IC50 | - | 1.2 µM
Cc1cc(C)cc(C(=O)c2cc(Cl)ccc2OCCN2CCC(=O)NC2=O)c1 | pseudotyped | Y181C | - | Ki | RT activity | 8 µM
Cc1nnn2c1CO[C@H]1[C@@H]3OC(C)(C)O[C@@H]3[C@@H]3Sc4ccccc4C(=O)N3[C@H]1C2 | - | - | - | IC50 | RT activity / absorbance | 3.14 µM
Cc1cccc(Sc2c(C(C)C)c(CO)cn2Cc2ccncc2)c1 | - | - | - | IC50 | nucleotide incorporation / radiometric | 0.51 µM
O=C1c2ccccc2S[C@H]2[C@@H](O)[C@@H](O)[C@H](O)[C@H](CO)N12 | - | - | - | IC50 | RT activity / absorbance | 0.49 µM
CC(C)c1c(CO)cn(Cc2ccncc2)c1Sc1cc(Cl)cc(Cl)c1 | - | - | - | IC50 | nucleotide incorporation / radiometric | 0.2 µM
CCN1c2cc(C)c(C)cc2N(C)S(=O)(=O)c2cccnc21 | - | - | - | IC50 | nucleotide incorporation | 20 µM
COc1ccc(CCNC(=S)Nc2ccc(Br)cn2)cc1 | - | - | - | Ki | nucleotide incorporation | 1.2 µM
O=C(O[C@@H]1O[C@@H]2COC(=O)c3cc(O)c(O)c(O)c3-c3c(cc(O)c(O)c3O)C(=O)O[C@H]([C@H]1O)[C@@H]2O)c1cc(O)c(O)c(O)c1 | - | - | IIIB | IC50 | nucleotide incorporation | 20 µM
Cc1cn([C@H]2C=C[C@@H](COP(=O)(O)OP(=O)(O)OP(=O)(O)O)O2)c(=O)[nH]c1=O | - | - | HXB2 | IC50 | ELISA | 0.032 µM
CCC(C)Oc1cc(=O)[nH]c(S(=O)(=O)c2cc(C)cc(C)c2)n1 | - | - | IIIB | IC50 | nucleotide incorporation / radiometric | 23.7 µM
O=c1c(O[C@@H]2OC[C@@H](O)[C@H](O)[C@@H]2O)c(-c2ccc(O)c(O)c2)oc2cc(O)cc(O)c12 | - | - | IIIB | IC50 | nucleotide incorporation | 1000 µM
CO/N=C(\F)c1cc(/C(=C\CCCc2nnc(C)o2)c2cc(C)c3oc(=O)n(C)c3c2)cc(C)c1OC | - | - | - | IC50 | RT activity / absorbance | 0.47 µM
O=C(/C=C/c1ccc(O)c2c1[C@H](C(=O)O[C@H](Cc1ccc(O)c(O)c1)C(=O)O)[C@@H](c1ccc(O)c(O)c1)O2)O[C@H](Cc1ccc(O)c(O)c1)C(=O)O | - | - | - | IC50 | - | 68 µM
S=C(NCCc1cccc(Cl)c1)Nc1ccc(Br)cn1 | - | - | - | IC50 | nucleotide incorporation | 2.5 µM
CC(C)c1c(COC(N)=O)cn(Cc2ccncc2)c1Sc1cc(Cl)cc(Cl)c1 | - | - | - | IC50 | RT activity | 0.7 µM
Nc1nc(N)c2ncn([C@H]3CO[C@@H](COP(=O)(O)OP(=O)(O)OP(=O)(O)O)O3)c2n1 | - | - | - | Ki | - | 250 µM
CCOCn1c(Cc2cc(C)cc(C)c2)c(CC)c(=O)[nH]c1=O | - | - | IIIB | IC50 | - | 0.36 µM
Nc1nc2c(ncn2[C@H]2CO[C@@H](COP(=O)(O)OP(=O)(O)OP(=O)(O)O)O2)c(=O)[nH]1 | - | - | - | Ki | - | 0.019 µM
O=C(O[C@@H]1Cc2c(O)cc(O)cc2O[C@@H]1c1ccc(O)c(O)c1)c1cc(O)c(O)c(O)c1 | - | - | - | IC50 | - | >10 µM
CC1(C)O[C@@H]2[C@H](O1)[C@H]1Sc3ccccc3C(=O)N1[C@H]1Cn3nncc3CO[C@@H]21 | - | - | - | IC50 | RT activity / absorbance | 4.02 µM
O=C(O)C(=NNc1ccc(Cl)cc1)C(=O)O | - | - | - | IC50 | radiometric | 2.2 µM
COC(=O)[C@H]1CC[C@@H](c2ccc[n+](C)c2)N1 | - | - | - | IC50 | RT activity / radiometric | >500 µM
CCc1nc2ccccn2c1C(=O)c1cccs1 | - | - | - | IC50 | RT activity | 200 µM
Cc1nnn2c1CO[C@H]1[C@H](O)[C@H](O)[C@H]3Sc4ccccc4C(=O)N3[C@H]1C2 | - | - | - | IC50 | RT activity / absorbance | 10 µM
CC(C)c1c(CO)cn(Cc2ccncc2)c1Sc1cc(F)cc(F)c1 | - | - | - | IC50 | nucleotide incorporation / radiometric | 0.63 µM
O=C(O)C1=CC(=C(c2ccc(O)c(C(=O)O)c2)c2ccc(O)c(C(=O)O)c2)C=CC1=O | - | - | - | IC50 | RT activity / fluorescence | >100 µg/mL
O=C1c2ccccc2S[C@H]2[C@@H](O)[C@@H](O)[C@@H]3OCc4cnnn4C[C@@H]3N12 | - | - | - | IC50 | RT activity / absorbance | 12.47 µM

The last 6 rows once more:

structure	setting	changes	strain or isolate	measure	read by	result
COC(=O)[C@H]1CC[C@@H](c2ccc[n+](C)c2)N1	-	-	-	IC50	RT activity / radiometric	>500 µM
CCc1nc2ccccn2c1C(=O)c1cccs1	-	-	-	IC50	RT activity	200 µM
Cc1nnn2c1CO[C@H]1[C@H](O)[C@H](O)[C@H]3Sc4ccccc4C(=O)N3[C@H]1C2	-	-	-	IC50	RT activity / absorbance	10 µM
CC(C)c1c(CO)cn(Cc2ccncc2)c1Sc1cc(F)cc(F)c1	-	-	-	IC50	nucleotide incorporation / radiometric	0.63 µM
O=C(O)C1=CC(=C(c2ccc(O)c(C(=O)O)c2)c2ccc(O)c(C(=O)O)c2)C=CC1=O	-	-	-	IC50	RT activity / fluorescence	>100 µg/mL
O=C1c2ccccc2S[C@H]2[C@@H](O)[C@@H](O)[C@@H]3OCc4cnnn4C[C@@H]3N12	-	-	-	IC50	RT activity / absorbance	12.47 µM